We go through 2 substances from PMC8184013, “Interactions of SARS-CoV-2 envelope protein with amilorides correlate with antiviral activity” (2021).

The test system of data set [1] is V25F mutant of full-length SARS-CoV-2 E protein, SARS-CoV-2, P0DTC4 1-75. The data set is described as follows: PFO-PAGE.
The subject of data set [2] is N15A mutant of full-length SARS-CoV-2 E protein, SARS-CoV-2, P0DTC4 1-75. The data set is described as follows: PFO-PAGE.

Consider “V25F mutant of full-length SARS-CoV-2 E protein”, for which the result in data set [1] was “binds”.
As for “N15A mutant of full-length SARS-CoV-2 E protein”, the result in data set [2] is “binds”.
